B1: O75533 1xPhospho [T227(100)] (protein, UniProt O75533 1-1304, looked up)
Splicing factor 3B subunit 1: MAKIAKTHEDIEAQIREIQGKKAALDEAQGVGLDSTGYYDQEIYGGSDSRFAGYVTSIAATELEDDDDDYSSSTSLLGQKKPGYHAPVALLNDIPQSTEQYDPFAEHRPPKIADREDEYKKHRRTMIISPERLDPFADGGKTPDPKMNARTYMDVMREQHLTKEEREIRQQLAEKAKAGELKVVNGAAASQPPSKRKRRWDQTADQTPGATPKKLSSWDQAETPGHTPSLRWDETPGRAKGSETPGATPGSKIWDPTPSHTPAGAATPGRGDTPGHATPGHGGATSSARKNRWDETPKTERDTPGHGSGWAETPRTDRGGDSIGETPTPGASKRKSRWDETPASQMGGSTPVLTPGKTPIGTPAMNMATPTPGHIMSMTPEQLQAWRWEREIDERNRPLSDEELDAMFPEGYKVLPPPAGYVPIRTPARKLTATPTPLGGMTGFHMQTEDRTMKSVNDQPSGNLPFLKPDDIQYFDKLLVDVDESTLSPEEQKERKIMKLLLKIKNGTPPMRKAALRQITDKAREFGAGPLFNQILPLLMSPTLEDQERHLLVKVIDRILYKLDDLVRPYVHKILVVIEPLLIDEDYYARVEGREIISNLAKAAGLATMISTMRPDIDNMDEYVRNTTARAFAVVASALGIPSLLPFLKAVCKSKKSWQARHTGIKIVQQIAILMGCAILPHLRSLVEIIEHGLVDEQQKVRTISALAIAALAEAATPYGIESFDSVLKPLWKGIRQHRGKGLAAFLKAIGYLIPLMDAEYANYYTREVMLILIREFQSPDEEMKKIVLKVVKQCCGTDGVEANYIKTEILPPFFKHFWQHRMALDRRNYRQLVDTTVELANKVGAAEIISRIVDDLKDEAEQYRKMVMETIEKIMGNLGAADIDHKLEEQLIDGILYAFQEQTTEDSVMLNGFGTVVNALGKRVKPYLPQICGTVLWRLNNKSAKVRQQAADLISRTAVVMKTCQEEKLMGHLGVVLYEYLGEEYPEVLGSILGALKAIVNVIGMHKMTPPIKDLLPRLTPILKNRHEKVQENCIDLVGRIADRGAEYVSAREWMRICFELLELLKAHKKAIRRATVNTFGYIAKAIGPHDVLATLLNNLKVQERQNRVCTTVAIAIVAETCSPFTVLPALMNEYRVPELNVQNGVLKSLSFLFEYIGEMGKDYIYAVTPLLEDALMDRDLVHRQTASAVVQHMSLGVYGFGCEDSLNHLLNYVWPNVFETSPHVIQAVMGALEGLRVAIGPCRMLQYCLQGLFHPARKVRDVYWKIYNSIYIGSQDALIAHYPRIYNDDKNTYIRYELDYIL
modifications: phosphorylated T227
B2: Q13435 2xPhospho [S431(99.5); S] (protein, UniProt Q13435 1-895, looked up)
Splicing factor 3B subunit 2: MATEHPEPPKAELQLPPPPPPGHYGAWAAQELQAKLAEIGAPIQGNREELVERLQSYTRQTGIVLNRPVLRGEDGDKAAPPPMSAQLPGIPMPPPPLGLPPLQPPPPPPPPPPGLGLGFPMAHPPNLGPPPPLRVGEPVALSEEERLKLAQQQAALLMQQEERAKQQGDHSLKEHELLEQQKRAAVLLEQERQQEIAKMGTPVPRPPQDMGQIGVRTPLGPRVAAPVGPVGPTPTVLPMGAPVPRPRGPPPPPGDENREMDDPSVGPKIPQALEKILQLKESRQEEMNSQQEEEEMETDARSSLGQSASETEEDTVSVSKKEKNRKRRNRKKKKKPQRVRGVSSESSGDREKDSTRSRGSDSPAADVEIEYVTEEPEIYEPNFIFFKRIFEAFKLTDDVKKEKEKEPEKLDKLENSAAPKKKGFEEEHKDSDDDSSDDEQEKKPEAPKLSKKKLRRMNRFTVAELKQLVARPDVVEMHDVTAQDPKLLVHLKATRNSVPVPRHWCFKRKYLQGKRGIEKPPFELPDFIKRTGIQEMREALQEKEEQKTMKSKMREKVRPKMGKIDIDYQKLHDAFFKWQTKPKLTIHGDLYYEGKEFETRLKEKKPGDLSDELRISLGMPVGPNAHKVPPPWLIAMQRYGPPPSYPNLKIPGLNSPIPESCSFGYHAGGWGKPPVDETGKPLYGDVFGTNAAEFQTKTEEEEIDRTPWGELEPSDEESSEEEEEEESDEDKPDETGFITPADSGLITPGGFSSVPAGMETPELIELRKKKIEEAMDGSETPQLFTVLPEKRTATVGGAMMGSTHIYDMSTVMSRKGPAPELQGVEVALAPEELELDPMAMTQKYEEHVREQQAQVEKEDFSDMVAEHAAKQKQKKRKAQPQDSRGGSKKYKEFKF
modifications: diphosphorylated incl. S431
B3: Q96ST3 1xPhospho [S832(100)] (protein, UniProt Q96ST3 1-1273, looked up)
Paired amphipathic helix …: MKRRLDDQESPVYAAQQRRIPGSTEAFPHQHRVLAPAPPVYEAVSETMQSATGIQYSVTPSYQVSAMPQSSGSHGPAIAAVHSSHHHPTAVQPHGGQVVQSHAHPAPPVAPVQGQQQFQRLKVEDALSYLDQVKLQFGSQPQVYNDFLDIMKEFKSQSIDTPGVISRVSQLFKGHPDLIMGFNTFLPPGYKIEVQTNDMVNVTTPGQVHQIPTHGIQPQPQPPPQHPSQPSAQSAPAPAQPAPQPPPAKVSKPSQLQAHTPASQQTPPLPPYASPRSPPVQPHTPVTISLGTAPSLQNNQPVEFNHAINYVNKIKNRFQGQPDIYKAFLEILHTYQKEQRNAKEAGGNYTPALTEQEVYAQVARLFKNQEDLLSEFGQFLPDANSSVLLSKTTAEKVDSVRNDHGGTVKKPQLNNKPQRPSQNGCQIRRHPTGTTPPVKKKPKLLNLKDSSMADASKHGGGTESLFFDKVRKALRSAEAYENFLRCLVIFNQEVISRAELVQLVSPFLGKFPELFNWFKNFLGYKESVHLETYPKERATEGIAMEIDYASCKRLGSSYRALPKSYQQPKCTGRTPLCKEVLNDTWVSFPSWSEDSTFVSSKKTQYEEHIYRCEDERFELDVVLETNLATIRVLEAIQKKLSRLSAEEQAKFRLDNTLGGTSEVIHRKALQRIYADKAADIIDGLRKNPSIAVPIVLKRLKMKEEEWREAQRGFNKVWREQNEKYYLKSLDHQGINFKQNDTKVLRSKSLLNEIESIYDERQEQATEENAGVPVGPHLSLAYEDKQILEDAAALIIHHVKRQTGIQKEDKYKIKQIMHHFIPDLLFAQRGDLSDVEEEEEEEMDVDEATGAVKKHNGVGGSPPKSKLLFSNTAAQKLRGMDEVYNLFYVNNNWYIFMRLHQILCLRLLRICSQAERQIEEENREREWEREVLGIKRDKSDSPAIQLRLKEPMDVDVEDYYPAFLDMVRSLLDGNIDSSQYEDSLREMFTIHAYIAFTMDKLIQSIVRQLQHIVSDEICVQVTDLYLAENNNGATGGQLNTQNSRSLLESTYQRKAEQLMSDENCFKLMFIQSQGQVQLTIELLDTEEENSDDPVEAERWSDYVERYMNSDTTSPELREHLAQKPVFLPRNLRRIRKCQRGREQQEKEGKEGNSKKTMENVDSLDKLECRFKLNSYKMVYVIKSEDYMYRRTALLRAHQSHERVSKRLHQRFQAWVDKWTKEHVPREMAAETSKWLMGEGLEGLVPCTTTCDTETLHFVSINKYRVKYGTVFKAP
modifications: phosphorylated S832
B4: Q99856 1xPhospho [S88(100)] (protein, UniProt Q99856 1-593, looked up)
AT-rich interactive …: MKLQAVMETLLQRQQRARQELEARQQLPPDPPAAPPGRARAAPDEDREPESARMQRAQMAALAAMRAAAAGLGHPASPGGSEDGPPGSEEEDAAREGTPGSPGRGREGPGEEHFEDMASDEDMKPKWEEEEMEEDLGEDEEEEEEDYEDEEEEEDEEGLGPPGPASLGTTALFPRKAQPPQAFRGDGVPRVLGGQERPGPGPAHPGGAAHVAPQLQPPDHGDWTYEEQFKQLYELDGDPKRKEFLDDLFSFMQKRGTPVNRIPIMAKQVLDLFMLYVLVTEKGGLVEVINKKLWREITKGLNLPTSITSAAFTLRTQYMKYLYPYECEKRGLSNPNELQAAIDSNRREGRRQSFGGSLFAYSPGGAHGMLSSPKLPVSSLGLAASTNGSSITPAPKIKKEEDSAIPITVPGRLPVSLAGHPVVAAQAAAVQAAAAQAAVAAQAAALEQLREKLESAEPPEKKMALVADEQQRLMQRALQQNFLAMAAQLPMSIRINSQASESRQDSAVNLTGTNGSNSISMSVEINGIMYTGVLFAQPPAPTPTSAPNKGGGGGGGSSSNAGGRGGNTGTSGGQAGPAGLSTPSTSTSNNSLP
modifications: phosphorylated S88
B5: Q8WUM9 2xPhospho [S265(100); S269(100)] (protein, UniProt Q8WUM9 1-679, looked up)
Sodium-dependent phosphate …: MATLITSTTAATAASGPLVDYLWMLILGFIIAFVLAFSVGANDVANSFGTAVGSGVVTLKQACILASIFETVGSVLLGAKVSETIRKGLIDVEMYNSTQGLLMAGSVSAMFGSAVWQLVASFLKLPISGTHCIVGATIGFSLVAKGQEGVKWSELIKIVMSWFVSPLLSGIMSGILFFLVRAFILHKADPVPNGLRALPVFYACTVGINLFSIMYTGAPLLGFDKLPLWGTILISVGCAVFCALIVWFFVCPRMKRKIEREIKCSPSESPLMEKKNSLKEDHEETKLSVGDIENKHPVSEVGPATVPLQAVVEERTVSFKLGDLEEAPERERLPSVDLKEETSIDSTVNGAVQLPNGNLVQFSQAVSNQINSSGHYQYHTVHKDSGLYKELLHKLHLAKVGDCMGDSGDKPLRRNNSYTSYTMAICGMPLDSFRAKEGEQKGEEMEKLTWPNADSKKRIRMDSYTSYCNAVSDLHSASEIDMSVKAEMGLGDRKGSNGSLEEWYDQDKPEVSLLFQFLQILTACFGSFAHGGNDVSNAIGPLVALYLVYDTGDVSSKVATPIWLLLYGGVGICVGLWVWGRRVIQTMGKDLTPITPSSGFSIELASALTVVIASNIGLPISTTHCKVGSVVSVGWLRSKKAVDWRLFRNIFMAWFVTVPISGVISAAIMAIFRYVILRM
modifications: phosphorylated S265, S269
B6: Q96QD8 1xPhospho [S/Y] (protein, UniProt Q96QD8 1-506, looked up)
Sodium-coupled neutral amino …: MKKAEMGRFSISPDEDSSSYSSNSDFNYSYPTKQAALKSHYADVDPENQNFLLESNLGKKKYETEFHPGTTSFGMSVFNLSNAIVGSGILGLSYAMANTGIALFIILLTFVSIFSLYSVHLLLKTANEGGSLLYEQLGYKAFGLVGKLAASGSITMQNIGAMSSYLFIVKYELPLVIQALTNIEDKTGLWYLNGNYLVLLVSLVVILPLSLFRNLGYLGYTSGLSLLCMVFFLIVVICKKFQVPCPVEAALIINETINTTLTQPTALVPALSHNVTENDSCRPHYFIFNSQTVYAVPILIFSFVCHPAVLPIYEELKDRSRRRMMNVSKISFFAMFLMYLLAALFGYLTFYEHVESELLHTYSSILGTDILLLIVRLAVLMAVTLTVPVVIFPIRSSVTHLLCASKDFSWWRHSLITVSILAFTNLLVIFVPTIRDIFGFIGASAASMLIFILPSAFYIKLVKKEPMKSVQKIGALFFLLSGVLVMTGSMALIVLDWVHNAPGGGH
modifications: phosphorylated

System: HepG2-NTCP cells
Test: TMT-based phosphoproteome profiling of HBV-infected vs mock HepG2-NTCP (HBV/mock ratio)
Set-up: species or system human
Details: phosphosite abundance ratio of host protein, HBV-infected vs mock HepG2-NTCP, 7dpi, sheet Up-regulated

Molecule | HBV/mock
B1 | 2.232
B2 | 3.7
B3 | 1.4051
B4 | 2.073
B5 | 1.471
B6 | 1.364
